Molecules are shown by their SMILES. Several values for one entry are separate records, joined by “and”; a condition that tells them apart may be missing. Equal entries are not always repeated.

The results in this text go back to article PMC9919615, “Generation of Aurachin Derivatives by Whole-Cell Biotransformation and Evaluation of Their Antiprotozoal Properties” (Molecules, 2023).

The data set has as its system L. donovani MHOM-ET-67/L82. The data set is described as follows: Antileishmanial assay (axenic amastigotes, resazurin viability). Format: cell-based, Leishmania donovani. To be noted: IC50 (L6)/IC50 (L. donovani). The method, then:
Serial dilution assays with 11 dilution steps in 96-well plates were used in order to determine the IC50 values of the generated aurachin D analogs against P. falciparum NF54 (erythrocytic stages), T. brucei rhodesiense STIB 900 (bloodstream forms), T. cruzi Tulahuen C4 (intracellular amastigotes) and L. donovani MHOM-ET-67/L82 (axenic amastigotes). Potential cytotoxic effects were evaluated with L6 myoblast cells (Table 2). Evaluation of antileishmanial activity was carried out with axenically grown amastigotes of Leishmania donovani MHOM-ET-67/L82, as previously described. For this, the amastigotes were cultured at 37 °C and pH 5.4 in SM medium supplemented with 10% heat-inactivated fetal bovine serum under an atmosphere of 5% CO2 in air. Following a 3-day exposure to test compounds, the viability of amastigote parasites was quantified using the dye resazurin by monitoring the reductive environment of living cells. Fluorescence development was expressed as percentage of the control, and IC50 values were calculated. Miltefosine was used as positive control.
(The colour change of resazurin is a common sign of viable cells or microbes.)

In the case of `CC(C)=CCC/C(C)=C/CC/C(C)=C/Cc1c(C)[nH]c2ccccc2c1=O` [Compound 1, aurachin D], the “Antileishmanial S.I.” value was 2970 and 2969.5.

For `CC(C)=CCC/C(C)=C/CC/C(C)=C/Cc1c[nH]c2ccccc2c1=O` [Compound 2, 2-Desmethyl aurachin D], the “Antileishmanial S.I.” value turned out to be 13.2.

As to `CC(C)=CCC/C(C)=C/CC/C(C)=C/Cc1c(C)[nH]c2ccc(C)cc2c1=O` [Compound 3, 6-Methyl aurachin D], the “Antileishmanial S.I.” value came out at 4.3.

With `CC(C)=CCC/C(C)=C/CC/C(C)=C/Cc1c(C)[nH]c2cc(C)ccc2c1=O` [Compound 4, 7-Methyl aurachin D], the “Antileishmanial S.I.” value is 7.2.

Take `COc1ccc2[nH]c(C)c(C/C=C(\C)CC/C=C(\C)CCC=C(C)C)c(=O)c2c1` [Compound 5, 6-Methoxy aurachin D]: the “Antileishmanial S.I.” value is listed as 16.2.

With `COc1ccc2c(=O)c(C/C=C(\C)CC/C=C(\C)CCC=C(C)C)c(C)[nH]c2c1` [Compound 6, 7-Methoxy aurachin D], the “Antileishmanial S.I.” value came to 4.7.

In the case of `CC(C)=CCC/C(C)=C/CC/C(C)=C/Cc1c(C)[nH]c2ccc(F)cc2c1=O` [Compound 7, 6-Fluoro aurachin D], the “Antileishmanial S.I.” value is 203.9.

In the case of `CC(C)=CCC/C(C)=C/CC/C(C)=C/Cc1c(C)[nH]c2ccc(Cl)cc2c1=O` [Compound 8, 6-Chloro aurachin D], the “Antileishmanial S.I.” value is recorded as 18.9.

On to `CC(C)=CCC/C(C)=C/CC/C(C)=C/Cc1c(C)[nH]c2cc(Cl)ccc2c1=O` [Compound 9, 7-Chloro aurachin D], for which the “Antileishmanial S.I.” value amounted to 5.9.

For `CC(C)=CCC/C(C)=C/CC/C(C)=C/Cc1c(C)[nH]c2ccc(Br)cc2c1=O` [Compound 10, 6-Bromo aurachin D], the “Antileishmanial S.I.” value was 7.7.
